Data: article PMC8800143

Molecular target: SARS-CoV-2 spike S1 (wild-type) (SARS-CoV-2)
Test: BLI

Fc-tag tagged human ACE2 (from UniProt Q9BYF1) (Fc fusion)
Kd: 58.8 nM
